Patent US20150125509A1, “TREATMENT OF FISH POPULATIONS WITH LUFENURON” (priority 2012, published 2015)

Experiments:
[1] = Example 1: fish weight of treated groups; format: in vivo, Atlantic Salmon, S. salar; conditions: sea water
[2] = Example 2: fish weight of treated groups; format: in vivo, Atlantic salmon (Salmo salar); conditions: fresh water

O=C(NC(=O)c1c(F)cccc1F)Nc1cc(Cl)c(OC(F)(F)C(F)C(F)(F)F)cc1Cl (stereo not drawn) [lufenuron, N-{[2,5-Dichlor-4-(1,1,2,3,3,3-hexafluorpropoxy)phenyl]carbamoyl}-2,6-difluorbenzamid]
Weight ([1]; 3 mg/kg/day 7 days in-feed, 1 month post-treatment): 409 g | Weight ([1]; 3 mg/kg/day 7 days in-feed, 1 week post-treatment): 283 g | Weight ([1]; 3 mg/kg/day 7 days in-feed, 2 month post-treatment): 600 g | Weight ([1]; 3 mg/kg/day 7 days in-feed, 3 month post-treatment): 915 g | Weight ([1]; 3 mg/kg/day 7 days in-feed, 5 month post-treatment): 1410 g | Weight ([1]; 3 mg/kg/day 7 days in-feed, 6 month post-treatment): 1797 g | Weight ([1]; 3 mg/kg/day 7 days in-feed, 1 day post-treatment): 263 g | Weight ([1]; 5 mg/kg/day 7 days in-feed, 1 month post-treatment): 407 g | Weight ([1]; 5 mg/kg/day 7 days in-feed, 1 week post-treatment): 294 g | Weight ([1]; 5 mg/kg/day 7 days in-feed, 2 month post-treatment): 701 g | Weight ([1]; 5 mg/kg/day 7 days in-feed, 3 month post-treatment): 1000 g | Weight ([1]; 5 mg/kg/day 7 days in-feed, 4 month post-treatment): 1241 g | Weight ([1]; 5 mg/kg/day 7 days in-feed, 5 month post-treatment): 1593 g | Weight ([1]; 5 mg/kg/day 7 days in-feed, 6 month post-treatment): 1655 g | Weight ([1]; 5 mg/kg/day 7 days in-feed, 7 month post-treatment): 1995 g | Weight ([1]; 5 mg/kg/day 7 days in-feed, 8 month post-treatment): 1980 g | Weight ([1]; 5 mg/kg/day 7 days in-feed, 9 month post-treatment): 2290 g | Weight ([1]; 5 mg/kg/day 7 days in-feed, 1 day post-treatment): 253 g | Weight ([1]; 10 mg/kg/day 7 days in-feed, 1 month post-treatment): 423 g | Weight ([1]; 10 mg/kg/day 7 days in-feed, 1 week post-treatment): 296 g | Weight ([1]; 10 mg/kg/day 7 days in-feed, 2 month post-treatment): 644 g | Weight ([1]; 10 mg/kg/day 7 days in-feed, 3 month post-treatment): 974 g | Weight ([1]; 10 mg/kg/day 7 days in-feed, 4 month post-treatment): 1161 g | Weight ([1]; 10 mg/kg/day 7 days in-feed, 5 month post-treatment): 1440 g | Weight ([1]; 10 mg/kg/day 7 days in-feed, 6 month post-treatment): 1628 g | Weight ([1]; 10 mg/kg/day 7 days in-feed, 7 month post-treatment): 1905 g | Weight ([1]; 10 mg/kg/day 7 days in-feed, 8 month post-treatment): 2091 g | Weight ([1]; 10 mg/kg/day 7 days in-feed, 9 month post-treatment): 2065 g | Weight ([1]; 10 mg/kg/day 7 days in-feed, 1 day post-treatment): 256 g | Weight ([2]; 1 mg/kg/day 7 days in-feed, 5 days post sea transfer): 109 g | Weight ([2]; 1 mg/kg/day 7 days in-feed, 15 days post sea transfer): 98 g | Weight ([2]; 1 mg/kg/day 7 days in-feed, 42 days post sea transfer): 135 g | Weight ([2]; 1 mg/kg/day 7 days in-feed, 76 days post sea transfer): 196 g | Weight ([2]; 1 mg/kg/day 7 days in-feed, 98 days post sea transfer): 258 g | Weight ([2]; 1 mg/kg/day 7 days in-feed, 125 days post sea transfer): 303 g | Weight ([2]; 1 mg/kg/day 7 days in-feed, 154 days post sea transfer): 358 g | Weight ([2]; 5 mg/kg/day 7 days in-feed, 5 days post sea transfer): 106 g | Weight ([2]; 5 mg/kg/day 7 days in-feed, 15 days post sea transfer): 107 g | Weight ([2]; 5 mg/kg/day 7 days in-feed, 76 days post sea transfer): 201 g | Weight ([2]; 5 mg/kg/day 7 days in-feed, 98 days post sea transfer): 277 g | Weight ([2]; 5 mg/kg/day 7 days in-feed, 125 days post sea transfer): 318 g | Weight ([2]; 5 mg/kg/day 7 days in-feed, 154 days post sea transfer): 371 g | Weight ([2]; 10 mg/kg/day 7 days in-feed, 5 days post sea transfer): 110 g | Weight ([2]; 10 mg/kg/day 7 days in-feed, 15 days post sea transfer): 115 g | Weight ([2]; 10 mg/kg/day 7 days in-feed, 76 days post sea transfer): 208 g | Weight ([2]; 10 mg/kg/day 7 days in-feed, 98 days post sea transfer): 291 g | Weight ([2]; 10 mg/kg/day 7 days in-feed, 125 days post sea transfer): 316 g | Weight ([2]; 10 mg/kg/day 7 days in-feed, 154 days post sea transfer): 384 g
